# From PMC12192683
# Sequences of proteins named here, by UniProt entry; tags and fusion partners are left off. Residues count along the entry.
# UniProt Q07954, 20-4544: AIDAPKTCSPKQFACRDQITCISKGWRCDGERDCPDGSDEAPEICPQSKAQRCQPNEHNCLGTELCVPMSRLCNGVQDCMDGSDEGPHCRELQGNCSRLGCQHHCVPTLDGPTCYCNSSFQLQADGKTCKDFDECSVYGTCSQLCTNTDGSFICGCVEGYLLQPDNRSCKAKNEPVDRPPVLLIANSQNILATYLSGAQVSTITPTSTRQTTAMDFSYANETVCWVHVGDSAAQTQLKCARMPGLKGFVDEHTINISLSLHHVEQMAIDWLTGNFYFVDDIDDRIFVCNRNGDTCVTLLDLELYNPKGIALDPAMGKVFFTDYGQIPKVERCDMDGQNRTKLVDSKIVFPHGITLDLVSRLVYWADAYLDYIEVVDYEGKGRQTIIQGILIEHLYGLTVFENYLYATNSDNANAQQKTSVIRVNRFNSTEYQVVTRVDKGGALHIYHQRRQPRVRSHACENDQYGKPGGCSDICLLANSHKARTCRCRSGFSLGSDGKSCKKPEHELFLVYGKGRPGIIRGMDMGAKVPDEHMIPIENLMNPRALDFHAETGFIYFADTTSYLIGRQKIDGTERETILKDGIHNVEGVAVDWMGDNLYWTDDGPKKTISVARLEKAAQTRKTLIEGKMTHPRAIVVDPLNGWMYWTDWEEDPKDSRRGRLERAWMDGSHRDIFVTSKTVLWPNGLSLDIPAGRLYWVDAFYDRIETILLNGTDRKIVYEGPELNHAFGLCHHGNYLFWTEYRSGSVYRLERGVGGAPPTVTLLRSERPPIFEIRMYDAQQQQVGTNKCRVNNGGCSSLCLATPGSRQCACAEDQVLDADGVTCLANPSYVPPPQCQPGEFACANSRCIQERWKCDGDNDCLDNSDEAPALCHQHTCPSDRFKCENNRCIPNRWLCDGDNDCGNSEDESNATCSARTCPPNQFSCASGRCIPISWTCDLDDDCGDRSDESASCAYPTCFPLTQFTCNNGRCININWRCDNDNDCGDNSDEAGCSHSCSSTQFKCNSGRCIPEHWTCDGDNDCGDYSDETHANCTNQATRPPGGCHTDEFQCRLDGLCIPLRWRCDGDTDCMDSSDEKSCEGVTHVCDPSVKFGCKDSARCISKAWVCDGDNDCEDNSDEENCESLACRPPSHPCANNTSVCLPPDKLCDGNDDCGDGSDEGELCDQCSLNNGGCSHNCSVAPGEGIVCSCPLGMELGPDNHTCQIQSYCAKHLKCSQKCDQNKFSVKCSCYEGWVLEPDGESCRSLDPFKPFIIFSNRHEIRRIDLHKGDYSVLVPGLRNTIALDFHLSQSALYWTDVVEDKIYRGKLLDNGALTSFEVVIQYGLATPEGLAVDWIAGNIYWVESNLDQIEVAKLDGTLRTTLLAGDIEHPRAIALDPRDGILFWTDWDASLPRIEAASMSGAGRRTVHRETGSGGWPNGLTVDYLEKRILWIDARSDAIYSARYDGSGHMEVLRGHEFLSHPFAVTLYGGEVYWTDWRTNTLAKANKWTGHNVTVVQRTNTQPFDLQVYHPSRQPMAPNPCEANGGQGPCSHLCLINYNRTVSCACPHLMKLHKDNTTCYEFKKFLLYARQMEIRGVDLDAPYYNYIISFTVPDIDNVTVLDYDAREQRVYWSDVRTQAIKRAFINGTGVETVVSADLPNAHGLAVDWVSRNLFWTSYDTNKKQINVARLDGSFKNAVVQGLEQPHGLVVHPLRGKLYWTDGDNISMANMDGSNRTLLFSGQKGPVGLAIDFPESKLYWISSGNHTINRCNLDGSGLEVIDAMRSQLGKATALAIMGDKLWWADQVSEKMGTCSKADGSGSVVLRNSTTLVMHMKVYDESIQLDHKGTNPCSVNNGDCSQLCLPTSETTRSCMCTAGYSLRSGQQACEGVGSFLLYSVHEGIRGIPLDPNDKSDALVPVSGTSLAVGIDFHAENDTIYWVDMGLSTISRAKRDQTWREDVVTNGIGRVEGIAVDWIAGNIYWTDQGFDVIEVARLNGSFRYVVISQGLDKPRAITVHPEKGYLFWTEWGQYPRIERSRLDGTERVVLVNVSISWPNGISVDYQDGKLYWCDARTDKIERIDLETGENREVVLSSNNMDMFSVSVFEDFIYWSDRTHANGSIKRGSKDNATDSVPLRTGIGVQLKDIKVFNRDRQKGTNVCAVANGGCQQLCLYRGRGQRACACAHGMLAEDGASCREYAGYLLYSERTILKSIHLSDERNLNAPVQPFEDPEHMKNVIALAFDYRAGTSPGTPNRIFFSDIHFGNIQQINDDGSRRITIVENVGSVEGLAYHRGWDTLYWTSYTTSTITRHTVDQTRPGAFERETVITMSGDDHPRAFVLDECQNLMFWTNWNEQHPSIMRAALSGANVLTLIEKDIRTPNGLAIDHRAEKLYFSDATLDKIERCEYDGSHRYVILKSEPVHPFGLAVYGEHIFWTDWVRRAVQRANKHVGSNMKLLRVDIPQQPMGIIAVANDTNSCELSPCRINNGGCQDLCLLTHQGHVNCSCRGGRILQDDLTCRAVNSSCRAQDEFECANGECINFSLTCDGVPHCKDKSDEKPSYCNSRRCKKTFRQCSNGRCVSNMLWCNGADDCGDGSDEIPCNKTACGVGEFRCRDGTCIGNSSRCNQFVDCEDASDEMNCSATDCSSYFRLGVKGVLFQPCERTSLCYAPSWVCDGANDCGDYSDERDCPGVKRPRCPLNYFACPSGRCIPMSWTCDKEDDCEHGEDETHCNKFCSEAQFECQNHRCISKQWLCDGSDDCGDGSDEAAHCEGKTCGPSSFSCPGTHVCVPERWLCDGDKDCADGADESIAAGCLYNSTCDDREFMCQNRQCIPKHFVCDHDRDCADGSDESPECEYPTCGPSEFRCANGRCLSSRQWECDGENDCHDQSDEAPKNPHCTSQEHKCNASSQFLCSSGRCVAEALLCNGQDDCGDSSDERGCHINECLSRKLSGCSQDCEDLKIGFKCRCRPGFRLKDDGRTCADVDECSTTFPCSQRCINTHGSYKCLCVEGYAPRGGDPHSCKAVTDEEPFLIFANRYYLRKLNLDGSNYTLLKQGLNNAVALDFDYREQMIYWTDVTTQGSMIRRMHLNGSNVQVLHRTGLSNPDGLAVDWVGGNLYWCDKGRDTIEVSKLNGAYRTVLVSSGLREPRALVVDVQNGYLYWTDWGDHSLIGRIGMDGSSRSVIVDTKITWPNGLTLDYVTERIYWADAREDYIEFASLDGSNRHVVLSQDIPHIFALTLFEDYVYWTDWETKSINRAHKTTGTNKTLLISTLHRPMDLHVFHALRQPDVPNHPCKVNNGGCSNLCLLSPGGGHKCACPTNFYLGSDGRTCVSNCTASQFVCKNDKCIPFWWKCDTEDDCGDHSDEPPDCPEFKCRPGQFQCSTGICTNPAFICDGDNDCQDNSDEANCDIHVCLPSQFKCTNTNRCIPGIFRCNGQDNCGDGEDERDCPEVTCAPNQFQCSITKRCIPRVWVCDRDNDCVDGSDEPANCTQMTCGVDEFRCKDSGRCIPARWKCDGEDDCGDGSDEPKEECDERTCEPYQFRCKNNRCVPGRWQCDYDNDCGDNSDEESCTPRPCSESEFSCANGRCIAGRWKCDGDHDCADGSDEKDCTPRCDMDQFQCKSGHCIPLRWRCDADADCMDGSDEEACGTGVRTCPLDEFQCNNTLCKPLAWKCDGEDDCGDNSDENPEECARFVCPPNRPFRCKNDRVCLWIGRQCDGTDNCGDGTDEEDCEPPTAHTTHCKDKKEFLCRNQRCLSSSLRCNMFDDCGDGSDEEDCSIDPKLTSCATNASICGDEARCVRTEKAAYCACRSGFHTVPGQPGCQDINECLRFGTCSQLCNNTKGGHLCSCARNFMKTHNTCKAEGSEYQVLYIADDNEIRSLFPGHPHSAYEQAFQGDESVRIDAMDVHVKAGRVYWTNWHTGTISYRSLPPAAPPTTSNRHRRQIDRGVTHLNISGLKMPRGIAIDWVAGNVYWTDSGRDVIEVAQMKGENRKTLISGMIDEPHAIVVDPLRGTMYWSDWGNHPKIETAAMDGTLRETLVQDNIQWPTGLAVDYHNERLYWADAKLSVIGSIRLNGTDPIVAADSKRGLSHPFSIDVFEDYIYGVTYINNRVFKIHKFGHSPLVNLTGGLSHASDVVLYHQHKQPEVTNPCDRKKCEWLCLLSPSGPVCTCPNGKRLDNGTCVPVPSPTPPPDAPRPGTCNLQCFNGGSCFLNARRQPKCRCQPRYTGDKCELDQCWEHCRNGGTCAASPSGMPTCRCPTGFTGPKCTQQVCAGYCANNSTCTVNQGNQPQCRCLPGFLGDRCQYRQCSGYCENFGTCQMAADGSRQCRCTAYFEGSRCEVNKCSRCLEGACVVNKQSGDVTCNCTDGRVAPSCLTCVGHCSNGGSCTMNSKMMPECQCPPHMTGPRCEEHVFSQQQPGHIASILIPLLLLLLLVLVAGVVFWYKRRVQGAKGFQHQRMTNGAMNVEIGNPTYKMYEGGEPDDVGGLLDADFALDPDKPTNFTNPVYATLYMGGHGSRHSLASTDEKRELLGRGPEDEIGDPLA
# Molecular target: low-density lipoprotein receptor-related protein 1 (LRP1), full-length, purified from human placenta (human) (UniProt Q07954)
# Assay: SPR; Biacore 3000; receptor amine-coupled to CM5 chip; ligand flowed in HBS-P (0.01 M HEPES pH 7.4, 0.15 M NaCl, 0.005% P20) with 1 mM CaCl2, 10 ul/min, 25 C; kinetic fit to a 1:1 Langmuir model
substance,measurement,value
SARS-CoV-2 spike protein S1 subunit (Val16-Arg685) fused to the Fc region of mouse IgG1 (from UniProt P0DTC2 16-685) (Fc fusion),pKd,7.42
same,koff,0.00022 s⁻¹
same,kon,5400 M⁻¹ s⁻¹

# pKd: −log10 of the molar value.
